Compound potency records, mixed from different reports. Data source: NIAID ChemDB in PubChem.

Common to all: whole-cell or culture tests; organism: Hepatitis C virus; method: luciferase / replicon; endpoint: EC50

ECn is the concentration giving n% inhibition of infection, replication or growth. An empty or dashed field is not shown. Rows are shuffled and stem from different studies. a–b is a range or a potency band.

structure	cells	strain	result
CC(C)N(C(=O)c1ccc(C(F)(F)F)cc1F)c1cc(-c2ccc(-c3cc4ncccn4n3)cc2)sc1C(=O)O		1b	0.05–0.1 µM
COCCOCC(=O)Nc1ccc(Sc2cc(=O)n(C)c3ccccc23)cc1	Huh-Luc-Neo		<1 µM
COCCN(C(=O)c1ccc(Cl)cc1F)c1cc(-c2ccc(-c3cc4ncccn4n3)cc2)sc1C(=O)O		1a	0.05–0.1 µM
Cc1c(C(=O)Nc2ccc(Cl)cc2)nn(-c2ccccc2)c1-n1cccc1	Huh 5-2	Con1 (gt 1b)	16.5 µM
Cc1cn([C@@H]2CP(=O)(OC(C)C)[C@@H](CO)O2)c(=O)[nH]c1=O	Huh7	ZS11 (gt 1b)	>10 µM
Cn1c(=O)cc(Sc2ccc(C(C)(C)C)cc2)c2ccccc21	Huh-Luc-Neo		1–10 µM
CC(C)N(C(=O)c1ccc(C(F)(F)F)cc1C(F)(F)F)c1cc(-c2ccc(-c3cc4ncccn4n3)cc2)sc1C(=O)O		1a	0.1–0.5 µM
O=C(Nc1ccc(Cl)c(Cl)c1)c1cc(-n2cccc2)n(-c2ccccc2)n1	Huh 5-2	Con1 (gt 1b)	39.8 µM
CC(C)N(C(=O)c1ccc(Cl)cc1Cl)c1cc(-c2ccccc2)sc1C(=O)O		1a	1–5 µM
Cc1c(C(=O)Nc2ccccc2)nn(-c2ccc(Cl)cc2)c1-n1cccc1	Huh 5-2	Con1 (gt 1b)	16.7 µM
Cc1ccc2c(c1)c(Sc1ccc(Cl)cc1)cc(=O)n2C	Huh-Luc-Neo		<1 µM
COC(=O)N[C@H](C(=O)N1CCC[C@H]1c1ncc(-c2ccc3c(c2)Cc2ccc(-c4cnc([C@@H]5CCCN5C(=O)[C@@H](NC(=O)OC)C(C)C)[nH]4)cc2O3)[nH]1)C(C)C	Huh7	GT3a	0.0013 µM
Cc1ccc2c(c1)c(Sc1ccc(N)cc1)cc(=O)n2C	Huh-Luc-Neo		<1 µM
O=C(Nc1ccc(Cl)cc1)c1cc(-n2cccc2)n(-c2ccc(Cl)cc2)n1	Huh 5-2	Con1 (gt 1b)	35.4 µM
COc1nc(N)nc2c1ncn2[C@@H]1O[C@H](COP(=O)(N[C@@H](C)C(=O)OCC(C)(C)C)Oc2cccc3ccccc23)[C@@H](O)[C@@]1(C)O	Huh7	1b replicon	0.01 µM
Cc1cc2c(Sc3ccc(N)cc3)cc(=O)n(C)c2cc1C	Huh-Luc-Neo		<1 µM

2 of the rows above, restated:

COCCN(C(=O)c1ccc(Cl)cc1F)c1cc(-c2ccc(-c3cc4ncccn4n3)cc2)sc1C(=O)O ; strain: 1a ; result: 0.05–0.1 µM
Cc1c(C(=O)Nc2ccccc2)nn(-c2ccc(Cl)cc2)c1-n1cccc1 ; cells: Huh 5-2 ; strain: Con1 (gt 1b) ; result: 16.7 µM